Pooled drug test results. Numbers come from NIAID ChemDB, via PubChem.

Shared fields: tests in culture; organism: Hepatitis C virus; read by: replicon; endpoint: EC50

Two numbers with a dash give a range or band.

smiles | strain or isolate | cells | value
COc1cccc(CC(=O)N/N=C/c2c(Cl)cccc2OS(=O)(=O)c2ccc(C(F)(F)F)cc2)c1 | - | Huh7 | <5 µM
CC1CCC(C(=O)N(c2cc(-c3ccc(NC(=O)c4cnn(C)c4)cc3)sc2C(=O)O)C(C)C)CC1 | 1a | - | <0.5 µM
Fc1ccc(CNc2nc(NCc3cccnc3)c3nc(-c4ccc(F)cc4)ccc3n2)cc1 | - | - | <0.1 µM
CN(C)S(=O)(=O)NC(=O)c1ccc2c(C3CCCCC3)c3n(c2c1)C[C@H](C(=O)N1CCOCC1)Cc1ccccc1-3 | - | Huh7 | 0.01–1 µM
CNC(=O)c1c(-c2ccc(F)cc2)oc2cc(-c3c(C)noc3C)c(OCc3c(C)noc3C)cc12 | - | Huh7 | <1 µM
C=C[C@H]1C[C@@]1(NC(=O)[C@@H]1C[C@@H](Oc2cc(-c3ccccc3)nc3cc(OC)ccc23)CN1C(=O)[C@@H](NC(=O)OC1CCOCC1)C(C)(C)C)C(=O)NS(=O)(=O)C1(Cc2ccccc2)CC1 | 1b | Huh7 | 0.05–0.5 µM
CS(=O)(=O)NC(=O)c1c(-c2ccc[nH]c2=O)c2c3occc3c(F)cc2n1Cc1cc(Cl)nc2ccccc12 | - | - | 0.5–1.5 µM
CC(C)C(=O)Nc1ccc(-c2ccc3nc(N)nc(N4CCS(=O)(=O)CC4)c3n2)cc1 | - | Huh7 | <0.3 µM
C=CC1CC1(NC(=O)[C@@H]1C[C@@H](OC(=O)N2CCc3ccccc3C2)CN1C(=O)[C@@H](NCC1CC1)C(C)(C)C)C(=O)NS(=O)(=O)C1CC1 | 1b | Huh7 | 1–10 µM
Cc1ncsc1C(=O)Nc1ccc(-c2cc(N(C(=O)C3CCC(C)CC3)C(C)C)c(C(=O)O)s2)cc1 | 1a | - | <0.5 µM
Cc1cccc(Cn2c(C(=O)NS(=O)(=O)C3CC3)c(-c3ccc[nH]c3=O)c3c4occc4ccc32)c1F | - | - | <0.5 µM
C=CC1CC1(NC(=O)[C@@H]1C[C@@H](Oc2cc(-c3ccccc3)nc3cc(OC)ccc23)CN1C(=O)[C@@H](NC(=O)OC(C)(C)C)C(C)(C)C)C(=O)NS(=O)(=O)C1(C(=O)c2ccccc2)CC1 | 1b | Huh7 | 0.05–0.5 µM
CNC(=O)c1c(-c2ccc(F)cc2)oc2cc(N3CCOCC3)c(OCc3cc(C)on3)cc12 | - | Huh7 | <1 µM
O=C(NS(=O)(=O)C1CC1)c1c(-c2ccc[nH]c2=O)c2c3occc3c(F)cc2n1Cc1cc([N+](=O)[O-])ccc1F | - | - | <0.5 µM
O=C(Cc1ccccc1Oc1ccccc1)N/N=C/c1ccccc1OS(=O)(=O)c1ccc(C(F)(F)F)cc1 | - | Huh7 | <5 µM
CC1CCC(C(=O)N(c2cc(-c3ccc(NC(=O)c4cscn4)cc3)sc2C(=O)[O-])C(C)C)CC1.NC(N)=[NH+]CCCC(N)C=O | 1b | - | <0.5 µM
CCNc1cc2oc(-c3ccc(F)cc3)c(C(=O)NC)c2cc1OCCCBr | - | Huh7 | <1 µM
Cc1cc(C(=O)Nc2ccc(-c3cc(N(C(=O)C4CCC(C)CC4)C(C)C)c(C(=O)O)s3)cc2)on1 | 1a | - | <0.5 µM
CCOc1nc(NCc2c(F)cc(Cl)cc2F)nc2ccc(-c3ccc(F)cc3)nc12 | - | - | <0.1 µM
CCCC1(S(=O)(=O)NC(=O)[C@]2(NC(=O)[C@@H]3C[C@@H](Oc4cc(-c5ccccc5)nc5cc(OC)ccc45)CN3C(=O)[C@@H](NC(=O)OC(C)(C)C)C(C)(C)C)CC23CC3)CC1 | 1b | Huh7 | 0.5–5 µM
CCOc1nc(NCc2ccc(F)cc2)nc2ccc(-c3ccc(C(=O)NC4CC4)cc3)nc12 | - | - | <0.1 µM
CN(C)S(=O)(=O)NC(=O)c1ccc2c(C3CCCCC3)c3n(c2c1)CCNc1ccccc1-3 | - | Huh7 | 0.01–1 µM
NC(=O)c1cnc(F)c(Cn2c(C(=O)O)c(-c3ccc[nH]c3=O)c3c4occc4c(F)cc32)c1 | - | - | <0.5 µM
O=C(Cc1cccc(F)c1)N/N=C/c1ccccc1OS(=O)(=O)c1ccc(C(F)(F)F)cc1 | - | Huh7 | <5 µM
NC(=O)C1Cc2ccccc2-c2c(C3CCCCC3)c3ccc(C(=O)NC4(C(=O)Nc5ccc(/C=C/C(=O)O)cc5)CCCC4)cc3n2C1 | - | Huh7 | 0.01–1 µM
CS(=O)(=O)NC(=O)c1c(-c2ccc[nH]c2=O)c2c3occc3c(F)cc2n1Cc1cc(F)ccc1F | - | - | <0.5 µM
C=CC1CC1(NC(=O)[C@@H]1C[C@@H](OC(=O)Nc2onc(C)c2C)CN1C(=O)[C@@H](NC(=O)OC(C)(C)C)C(C)(C)C)C(=O)NS(=O)(=O)C1CC1 | 1b | Huh7 | >10 µM
O=C(O)c1c(-c2ccc[nH]c2=O)c2c3occc3c(F)cc2n1Cc1cc2ccccc2[nH]c1=O | - | - | <0.5 µM
CC1CCC(C(=O)N(c2cc(-c3ccc(NC(=O)c4ccc(CO)o4)cc3)sc2C(=O)O)C(C)C)CC1 | 1b | - | <0.5 µM
Cc1ccc(S(=O)(=O)N/N=C/c2ccccc2OS(=O)(=O)c2ccc(C(F)(F)F)cc2)cc1 | - | Huh7 | 5–50 µM
CNC(=O)c1c(-c2ccc(F)cc2)oc2cc(N(CCO)S(C)(=O)=O)c(C3CC3)cc12 | - | Huh7 | <1 µM
COc1cccc(CC(=O)N/N=C/c2ccccc2OS(=O)(=O)c2ccc(C)cc2)c1 | - | Huh7 | <5 µM
C=C[C@H]1C[C@@]1(NC(=O)[C@@H]1C[C@@H](Oc2cc(-c3ccccc3)nc3cc(OC)ccc23)CN1C(=O)[C@@H](NC(=O)O[C@@H]1CCOC1)C(C)(C)C)C(=O)NS(=O)(=O)C1(Cc2ccccc2)CC1 | 1b | Huh7 | 0.05–0.5 µM
COCCNc1nc(NCc2ccc(F)cc2)nc2ccc(-c3ccc(F)cc3)nc12 | - | - | <0.1 µM
NC(=O)COc1ccc2c(c1)S(=O)(=O)N=C(c1c(O)c3cc(F)ccc3n(CCC3CC3)c1=O)N2 | 1a 33783 | - | 0.7 µM
C=CC1CC1(NC(=O)[C@@H]1C[C@@H](OC(=O)N(CCCC)CCCC)CN1C(=O)[C@@H](NC(=O)OC(C)(C)C)C(C)(C)C)C(=O)NS(=O)(=O)C1CC1 | 1b | Huh7 | 1–10 µM
CC1CCC(C(=O)N(c2cc(-c3cnc(NC(=O)c4cscn4)c(Cl)c3)sc2C(=O)O)C(C)C)CC1 | 1b | - | <0.5 µM
CSc1ccc(CC(=O)N/N=C/c2ccccc2OS(=O)(=O)c2ccc(C(F)(F)F)cc2)cc1 | - | Huh7 | <5 µM
C=CC1CC1(NC(=O)[C@@H]1C[C@@H](OC(=O)NCc2cccc(F)c2)CN1C(=O)[C@@H](NC(=O)OC(C)(C)C)C(C)(C)C)C(=O)NS(=O)(=O)C1CC1 | 1b | Huh7 | >10 µM
CCOc1nc(NCc2ccc(F)cc2)nc2ccc(-c3ccc(C(=O)NCCN(C)C)cc3)nc12 | - | - | <0.1 µM
O=C(Cc1c[nH]c2ccccc12)N/N=C/c1ccccc1OS(=O)(=O)c1ccc(C(F)(F)F)cc1 | - | Huh7 | <5 µM
CN(C(=O)c1ccc2c(C3CCCCC3)c3n(c2c1)CCCc1ccccc1-3)C1(C(=O)O)CCCC1 | - | Huh7 | >10 µM
O=C(N/N=C/c1ccccc1OS(=O)(=O)c1ccc(C(F)(F)F)cc1)C1CCCCC1 | - | Huh7 | 5–50 µM
C=CC1C[C@@]1(NC(=O)[C@@H]1C[C@@H](Oc2cc(-c3ccccc3)nc3cc(OC)ccc23)CN1C(=O)[C@@H](NC(=O)OCC(C)(C)C)C(C)(C)C)C(=O)NS(=O)(=O)C1(Cc2ccccc2)CC1 | 1b | Huh7 | 0.05–0.5 µM
O=C(Cc1cccc(Br)c1)N/N=C/c1ccccc1OS(=O)(=O)c1ccc(C(F)(F)F)cc1 | - | Huh7 | <5 µM
CS(=O)(=O)Nc1cccc(S(=O)(=O)NC(=O)c2c(-c3ccc[nH]c3=O)c3c4ccoc4ccc3n2Cc2ccc(F)cc2F)c1 | - | - | >1.5 µM
COCC(C)N(C(=O)C1CCC(C(F)(F)F)CC1)c1cc(-c2ccc(NC(=O)c3cscn3)cc2)sc1C(=O)O | 1b | - | <0.5 µM
CNC(=O)c1c(-c2ccc(C)c(F)c2)oc2ccc(OC)cc12 | - | Huh7 | <10 µM
C=C[C@H]1C[C@@]1(NC(=O)[C@@H]1C[C@@H](Oc2cc(-c3ccccc3)nc3cc(OC)ccc23)CN1C(=O)[C@@H](NC(=O)OC(C)(C)C)C(C)(C)C)C(=O)NS(=O)(=O)C1(Cc2ccc(F)cc2)CC1 | 1b | Huh7 | 0.05–0.5 µM
CC(C)(C)OC(=O)N1CC(O)Cn2c(c(C3CCCCC3)c3ccc(C(=O)O)cc32)-c2ccccc21 | - | Huh7 | 1–10 µM
CCOc1nc(NCc2ccc(F)cc2)nc2ccc(-c3ccc(CO)o3)nc12 | - | - | <0.1 µM
CN(C)S(=O)(=O)NC(=O)c1c(-c2ccc[nH]c2=O)c2c3occc3c(F)cc2n1Cc1cc2ccccc2nc1Cl | - | - | <0.5 µM
CCOc1nc(NCc2ccc(F)c(F)c2F)nc2ccc(-c3ccc(F)cc3)nc12 | - | - | <0.1 µM
CC1CCC(C(=O)N(CC2CC2)c2cc(-c3ccc(NC(=O)c4cscn4)cc3)sc2C(=O)O)CC1 | 1a | - | <0.5 µM
O=C(O)/C=C/c1ccc(NC(=O)C2(NC(=O)c3ccc4c(C5CCCCC5)c5n(c4c3)CCCc3cc(O)ccc3-5)CCCC2)cc1 | - | Huh7 | 0.01–1 µM
O=C(O)c1c(-c2ccc[nH]c2=O)c2c3occc3ccc2n1Cc1ccccc1F | - | - | 0.5–1.5 µM
CC1CCC(C(=O)N(c2cc(-c3ccc(NC(=O)c4cscn4)nc3)sc2C(=O)O)C(C)C)CC1 | 1b | - | <0.5 µM
CNC(=O)c1c(-c2ccc(F)cc2)oc2cc(OC)c(OC(C)C)cc12 | - | Huh7 | <10 µM
C[C@H](O)C(=O)Nc1ccc(-c2ccc3nc(NCc4ccc(S(N)(=O)=O)cc4)nc(NCC(F)(F)F)c3n2)cc1Cl | - | - | <0.1 µM
CNC(=O)c1c(-c2ccc(F)cc2)oc2cc(N(Cc3cc(C)on3)S(C)(=O)=O)c(OC(C)C)cc12 | - | Huh7 | <1 µM
C=CC1CC1(NC(=O)[C@@H]1C[C@@H](OC(=O)Nc2ccccc2SC)CN1C(=O)[C@@H](NC(=O)OC(C)(C)C)C(C)(C)C)C(=O)NS(=O)(=O)C1CC1 | 1b | Huh7 | 0.1–1 µM

A second listing of 9 rows from above:

CCOc1nc(NCc2ccc(F)cc2)nc2ccc(-c3ccc(C(=O)NCCN(C)C)cc3)nc12 ; value: <0.1 µM
CC(C)(C)OC(=O)N1CC(O)Cn2c(c(C3CCCCC3)c3ccc(C(=O)O)cc32)-c2ccccc21 ; cells: Huh7 ; value: 1–10 µM
NC(=O)COc1ccc2c(c1)S(=O)(=O)N=C(c1c(O)c3cc(F)ccc3n(CCC3CC3)c1=O)N2 ; strain or isolate: 1a 33783 ; value: 0.7 µM
C=C[C@H]1C[C@@]1(NC(=O)[C@@H]1C[C@@H](Oc2cc(-c3ccccc3)nc3cc(OC)ccc23)CN1C(=O)[C@@H](NC(=O)O[C@@H]1CCOC1)C(C)(C)C)C(=O)NS(=O)(=O)C1(Cc2ccccc2)CC1 ; strain or isolate: 1b ; cells: Huh7 ; value: 0.05–0.5 µM
CNC(=O)c1c(-c2ccc(F)cc2)oc2cc(N(CCO)S(C)(=O)=O)c(C3CC3)cc12 ; cells: Huh7 ; value: <1 µM
CCNc1cc2oc(-c3ccc(F)cc3)c(C(=O)NC)c2cc1OCCCBr ; cells: Huh7 ; value: <1 µM
C=CC1CC1(NC(=O)[C@@H]1C[C@@H](OC(=O)N(CCCC)CCCC)CN1C(=O)[C@@H](NC(=O)OC(C)(C)C)C(C)(C)C)C(=O)NS(=O)(=O)C1CC1 ; strain or isolate: 1b ; cells: Huh7 ; value: 1–10 µM
CN(C)S(=O)(=O)NC(=O)c1c(-c2ccc[nH]c2=O)c2c3occc3c(F)cc2n1Cc1cc2ccccc2nc1Cl ; value: <0.5 µM
CCOc1nc(NCc2ccc(F)cc2)nc2ccc(-c3ccc(CO)o3)nc12 ; value: <0.1 µM

Rows are shuffled and stem from different studies. ECn is the concentration giving n% inhibition of infection, replication or growth. An empty or dashed field is not shown.